PMC1971568 (British Journal of Cancer, 1990)
Like-named read-outs stand apart in the source and are kept apart here.

Key:
[1] = for Generated active drug concentration: Table VI
[2] = for Active drug concentration: active drug 11 mg kg-1 i.p., Table II
[3] = for Active drug level: tumour bearing, prodrug 160 mg kg-1 i.v., Table VIII
[4] = Stability in phosphate buffered saline (pH 7.4) at 37C, HPLC
[5] = ref Bagshawe et al., 1988; cited from earlier work
[6] = plasma, conjugate then prodrug 16 mg kg-1 i.v. 72 h later, Table V
[7] = plasma, 41 µmol kg-1 i.p., Table I

## O=C(O)c1ccc(N(CCCl)CCCl)cc1
[1]; kidney, 0.5 h
  Generated active drug concentration: 3.75 µg/g
[1]; kidney, 1.0 h
  Generated active drug concentration: 3.17 µg/g
[1]; kidney, 2.0 h
  Generated active drug concentration: 1.85 µg/g
[1]; kidney, 4.0 h
  Generated active drug concentration: 1.15 µg/g
[1]; liver, 0.5 h
  Generated active drug concentration: 5.85 µg/g
[1]; liver, 1.0 h
  Generated active drug concentration: 3.83 µg/g
[1]; liver, 2.0 h
  Generated active drug concentration: 2.22 µg/g
[1]; liver, 4.0 h
  Generated active drug concentration: 1.35 µg/g
[1]; lung, 0.5 h
  Generated active drug concentration: 2.65 µg/g
[1]; lung, 1.0 h
  Generated active drug concentration: 1.32 µg/g
[1]; lung, 2.0 h
  Generated active drug concentration: 0.80 µg/g
[1]; lung, 4.0 h
  Generated active drug concentration: 0.68 µg/g
[1]; plasma, 0.5 h
  Generated active drug concentration: 6.23 µg/mL
[1]; plasma, 1.0 h
  Generated active drug concentration: 3.35 µg/mL
[1]; plasma, 2.0 h
  Generated active drug concentration: 1.94 µg/mL
[1]; plasma, 4.0 h
  Generated active drug concentration: 1.18 µg/mL
[1]; plasma, W14-F(ab')2:CPG2 1,000 U kg-1 i.v., prodrug 16 mg kg-1 i.v. 72 h later, Table V
  AUC, area under plasma concentration versus time curve from zero to infinity: 20500 ng·h/mL
[1]; [6]
  Cl, total body clearance: 0.46 mL/min
  Vd, apparent volume of distribution: 0.11 L
[1]; tumour, 0.5 h
  Generated active drug concentration: 1.20 µg/g
[1]; tumour, 1.0 h
  Generated active drug concentration: 0.84 µg/g
[1]; tumour, 2.0 h
  Generated active drug concentration: 0.79 µg/g
[1]; tumour, 4.0 h
  Generated active drug concentration: 0.54 µg/g
[2]; kidney, 0.5 h
  Active drug concentration: 4.91 µg/g
[2]; kidney, 1.0 h
  Active drug concentration: 2.60 µg/g
[2]; kidney, 2.0 h
  Active drug concentration: 1.86 µg/g
[2]; kidney, 2 h, prodrug alone 16 mg kg-1 i.p., Table III
  Active drug level after prodrug alone: 0.29 µg/g
[2]; kidney, 4 h, prodrug alone 16 mg kg-1 i.p., Table III
  Active drug level after prodrug alone: 1.25 µg/g
[2]; liver, 0.5 h
  Active drug concentration: 8.38 µg/g
[2]; liver, 1.0 h
  Active drug concentration: 3.76 µg/g
[2]; liver, 2.0 h
  Active drug concentration: 2.97 µg/g
[2]; liver, 2 h, prodrug alone 16 mg kg-1 i.p., Table III
  Active drug level after prodrug alone: 0.52 µg/g
[2]; lung, 0.5 h
  Active drug concentration: 2.63 µg/g
[2]; lung, 1.0 h
  Active drug concentration: 1.28 µg/g
[2]; lung, 2.0 h
  Active drug concentration: 0.93 µg/g
[2]; lung, 2 h, prodrug alone 16 mg kg-1 i.p., Table III
  Active drug level after prodrug alone: 0.21 µg/g
[2]; lung, 4 h, prodrug alone 16 mg kg-1 i.p., Table III
  Active drug level after prodrug alone: 0.81 µg/g
[2]; plasma, 0.5 h
  Active drug concentration: 5.63 µg/mL
[2]; plasma, 1.0 h
  Active drug concentration: 3.33 µg/mL
[2]; plasma, 2.0 h
  Active drug concentration: 2.31 µg/mL
[2]; plasma, 2 h, prodrug alone 16 mg kg-1 i.p., Table III
  Active drug level after prodrug alone: 0.30 µg/mL
[2]; [7]
  Cl, total body clearance: 0.32 mL/min
  Vd, apparent volume of distribution: 0.05 L
[2]; plasma, prodrug 16 mg kg-1 or active drug 11 mg kg-1 (41 µmol kg-1) i.p., Table I
  AUC, area under plasma concentration versus time curve from zero to infinity: 18200 ng·h/mL
[2]; prodrug alone 16 mg kg-1 i.p., no conjugate, at 2 h not all mice had detectable levels
  Time after injection of prodrug until active drug measurable: at least 2 h
[2]; tumour, 0.5 h
  Active drug concentration: 1.43 µg/g
[2]; tumour, 1.0 h
  Active drug concentration: 1.03 µg/g
[2]; tumour, 2.0 h
  Active drug concentration: 1.09 µg/g
[2]; tumour, 2 h, prodrug alone 16 mg kg-1 i.p.
  Active drug level after prodrug alone: not detectable
[2]; tumour, 4 h, prodrug alone 16 mg kg-1 i.p., Table III
  Active drug level after prodrug alone: 0.20 µg/g
[3]; liver, 5 min
  Active drug level: 24.5 µg/g
[3]; liver, 15 min
  Active drug level: 22.9 µg/g
[3]; liver, 30 min
  Active drug level: 21.7 µg/g
[3]; lung, 5 min
  Active drug level: 28.3 µg/g
[3]; lung, 15 min
  Active drug level: 17.6 µg/g
[3]; lung, 30 min
  Active drug level: 14.4 µg/g
[3]; plasma, 5 min
  Active drug level: 109.0 µg/mL
[3]; plasma, 15 min
  Active drug level: 50.1 µg/mL
[3]; plasma, 30 min
  Active drug level: 32.8 µg/mL
[3]; plasma, liver and lung
  Difference between active drug levels in tumour bearing and non-tumour bearing mice: no significant difference
[3]; tumour, 5 min
  Active drug level: 11.0 µg/g
[3]; tumour, 15 min
  Active drug level: 10.3 µg/g
[3]; tumour, 30 min
  Active drug level: 11.5 µg/g
[4]
  Stability in organic solvents and aqueous solutions: stable
[5]
  Plasma peak level of active drug generated from prodrug in the presence of the conjugate: 6.8 µg/mL
